We go through 2 compounds from patent US20190330275A1 (priority 2016, published 2019).

Protein sequences, listed by entry. Tags and fused reporters are not part of them. Residues count along the entry.
UniProt P04757, 26-499 limits assumed: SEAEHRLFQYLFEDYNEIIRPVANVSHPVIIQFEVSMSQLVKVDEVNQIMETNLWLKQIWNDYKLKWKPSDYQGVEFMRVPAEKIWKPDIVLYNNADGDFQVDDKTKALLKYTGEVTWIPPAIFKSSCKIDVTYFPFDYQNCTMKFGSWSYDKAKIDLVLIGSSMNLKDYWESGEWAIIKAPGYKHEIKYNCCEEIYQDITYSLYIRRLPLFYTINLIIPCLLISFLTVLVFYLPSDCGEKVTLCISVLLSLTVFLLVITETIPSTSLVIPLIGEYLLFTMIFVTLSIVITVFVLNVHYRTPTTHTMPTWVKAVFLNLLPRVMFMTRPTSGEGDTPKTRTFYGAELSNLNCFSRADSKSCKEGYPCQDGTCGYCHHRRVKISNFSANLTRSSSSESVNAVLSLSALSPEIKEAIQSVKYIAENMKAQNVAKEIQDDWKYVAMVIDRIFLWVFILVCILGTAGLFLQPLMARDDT
UniProt P04757, whole entry, looked up: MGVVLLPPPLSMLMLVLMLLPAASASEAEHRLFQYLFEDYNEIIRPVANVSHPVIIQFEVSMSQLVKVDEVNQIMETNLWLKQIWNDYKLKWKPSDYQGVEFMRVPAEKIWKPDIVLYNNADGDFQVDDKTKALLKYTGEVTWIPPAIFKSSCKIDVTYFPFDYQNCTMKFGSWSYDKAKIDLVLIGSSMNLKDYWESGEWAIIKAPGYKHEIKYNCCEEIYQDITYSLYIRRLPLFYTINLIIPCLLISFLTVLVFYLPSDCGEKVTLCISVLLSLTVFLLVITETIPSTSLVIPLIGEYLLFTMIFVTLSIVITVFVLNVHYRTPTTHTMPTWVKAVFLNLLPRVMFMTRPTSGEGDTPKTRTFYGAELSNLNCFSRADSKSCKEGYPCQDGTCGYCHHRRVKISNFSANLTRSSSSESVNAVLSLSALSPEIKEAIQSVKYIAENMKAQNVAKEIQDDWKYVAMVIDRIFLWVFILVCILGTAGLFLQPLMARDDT
UniProt P12392, 21-495 limits assumed: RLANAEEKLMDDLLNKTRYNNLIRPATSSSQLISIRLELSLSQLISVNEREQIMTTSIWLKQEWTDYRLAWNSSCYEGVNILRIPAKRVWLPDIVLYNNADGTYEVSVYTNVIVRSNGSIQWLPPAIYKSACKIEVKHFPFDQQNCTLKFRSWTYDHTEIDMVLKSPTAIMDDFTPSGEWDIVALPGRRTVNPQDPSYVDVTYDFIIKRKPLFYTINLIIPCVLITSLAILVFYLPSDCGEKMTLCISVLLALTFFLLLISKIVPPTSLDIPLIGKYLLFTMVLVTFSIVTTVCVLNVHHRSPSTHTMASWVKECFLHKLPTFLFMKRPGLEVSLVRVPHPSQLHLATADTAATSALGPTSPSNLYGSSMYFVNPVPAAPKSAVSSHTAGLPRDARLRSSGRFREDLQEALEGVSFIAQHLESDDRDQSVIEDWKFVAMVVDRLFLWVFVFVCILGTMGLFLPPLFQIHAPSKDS
UniProt P12392, whole entry, looked up: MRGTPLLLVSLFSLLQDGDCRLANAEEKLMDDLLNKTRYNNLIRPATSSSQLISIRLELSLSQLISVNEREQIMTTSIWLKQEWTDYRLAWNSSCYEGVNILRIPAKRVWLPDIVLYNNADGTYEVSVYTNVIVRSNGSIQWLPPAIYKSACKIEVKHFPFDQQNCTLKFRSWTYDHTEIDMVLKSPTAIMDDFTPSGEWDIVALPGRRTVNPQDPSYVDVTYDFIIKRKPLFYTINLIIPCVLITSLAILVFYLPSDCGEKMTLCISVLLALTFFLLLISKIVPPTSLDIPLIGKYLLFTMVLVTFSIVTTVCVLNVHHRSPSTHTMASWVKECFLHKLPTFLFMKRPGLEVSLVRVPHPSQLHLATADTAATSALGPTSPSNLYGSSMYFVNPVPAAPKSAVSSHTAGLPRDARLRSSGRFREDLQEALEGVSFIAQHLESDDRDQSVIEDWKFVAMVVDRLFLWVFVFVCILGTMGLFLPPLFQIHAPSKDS
UniProt P43143, whole entry, looked up: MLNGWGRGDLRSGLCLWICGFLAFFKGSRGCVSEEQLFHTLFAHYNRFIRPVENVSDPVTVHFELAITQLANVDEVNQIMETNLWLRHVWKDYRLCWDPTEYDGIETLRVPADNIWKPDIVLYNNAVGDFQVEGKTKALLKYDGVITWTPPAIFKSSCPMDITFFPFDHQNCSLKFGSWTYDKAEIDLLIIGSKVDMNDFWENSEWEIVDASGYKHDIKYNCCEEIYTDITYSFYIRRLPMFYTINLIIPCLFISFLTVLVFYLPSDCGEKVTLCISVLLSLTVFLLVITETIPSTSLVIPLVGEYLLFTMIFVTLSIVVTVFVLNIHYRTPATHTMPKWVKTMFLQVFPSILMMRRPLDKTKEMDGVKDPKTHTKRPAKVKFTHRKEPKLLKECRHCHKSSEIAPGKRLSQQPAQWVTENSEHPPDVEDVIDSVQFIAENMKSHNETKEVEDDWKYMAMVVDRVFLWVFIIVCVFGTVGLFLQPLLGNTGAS

Read-outs that look alike come from different tables or passages of the source.

One test addresses rat α3β4 nAChR (Rattus norvegicus, UniProt P04757+P12392). Conditions: for α3β4 IC50 ratio: IC50 of TxID mutant to α3β4 nAChR / IC50 of wild-type TxID to α3β4 nAChR.
The target in a further test is rat α6/α3β4 nAChR (Rattus norvegicus, UniProt P04757+P12392+P43143). Conditions: for α6/α3β4 IC50 ratio: IC50 of TxID mutant to α6/α3β4 nAChR / IC50 of wild-type TxID to α6/α3β4 nAChR; for IC50 ratio of α6/α3β4 vs. α3β4 (Discrimination): IC50 of each peptide to α6/α3β4 nAChR / its IC50 to α3β4 nAChR.

`CC[C@H](C)[C@@H]1NC(=O)[C@H](C)NC(=O)[C@H](CO)NC(=O)[C@@H]2CSSC[C@H](NC(=O)CN)C(=O)N[C@@H](CSSC[C@@H](C(N)=O)NC(=O)[C@H]([C@@H](C)CC)NC(=O)[C@@H]3CCCN3C(=O)[C@H](CO)NC1=O)C(=O)N[C@@H](CO)C(=O)N[C@@H](Cc1c[nH]cn1)C(=O)N1CCC[C@H]1C(=O)N[C@@H](C(C)C)C(=O)N2` [TxID[M11I]]: on rat α3β4 nAChR, the “decrease of blocking (binding) activity to α3β4 nAChR in comparison with wild type TxID” value is reported as 20 times and the “α3β4 IC50 ratio” value is 20.6. For the same compound, on rat α6/α3β4 nAChR, the “α6/α3β4 IC50 ratio” value was 1.5 and the “IC50 ratio of α6/α3β4 vs. α3β4 (Discrimination)” value is 0.7.
In the case of `CC[C@H](C)[C@@H]1NC(=O)[C@@H]2CCCN2C(=O)[C@H](CO)NC(=O)[C@H](CCSC)NC(=O)[C@H](C)NC(=O)[C@H](CO)NC(=O)[C@@H]2CSSC[C@H](NC(=O)[C@H](C)N)C(=O)N[C@@H](CSSC[C@@H](C(N)=O)NC1=O)C(=O)N[C@@H](CO)C(=O)N[C@@H](Cc1c[nH]cn1)C(=O)N1CCC[C@H]1C(=O)N[C@@H](C(C)C)C(=O)N2` [TxID[G1A]], at rat α3β4 nAChR, the “decrease of blocking (binding) activity to α3β4 nAChR in comparison with wild type TxID” value came to 17 times and the “α3β4 IC50 ratio” value came out at 17.0. Moreover, at rat α6/α3β4 nAChR, the “decrease of blocking (binding) activity to α6/α3β4 nAChR in comparison with wild type TxID” value is on record as 8.2 times, the “α6/α3β4 IC50 ratio” value came out at 8.2 and the “IC50 ratio of α6/α3β4 vs. α3β4 (Discrimination)” value is recorded as 4.5. Further, the “decrease of blocking (binding) activity to α6/α3β4 nAChR in comparison with wild type TxID” value at rat α6/α3β4 nAChR (listed as TxID [G1A]) was 8 times.
